Source: US20110280848A1, “COMPOSITION COMPRISING CHICORIC ACID AND/OR DERIVATIVES THEREOF” (NESTEC S.A., priority 2009, published 2011)

Test system: chlorogenate esterase
Experiment: Hydrolysis of chicoric acid with chlorogenate esterase
Type: biochemical, Aspergillus japonicus
Settings: 37° C.

| SMILES | Concentration in % relative to untreated reference at t = 0 (pH 7.0, time 0 min) [%] | Concentration in % relative to untreated reference at t = 0 (pH 7.0, time 15 min) [%] | Concentration in % relative to untreated reference at t = 0 (pH 7.0, time 30 min) [%] | Concentration in % relative to untreated reference at t = 0 (pH 7.0, time 60 min) [%] | Concentration in % relative to untreated reference at t = 0 (pH 7.0, time 120 min) [%] | Concentration in % relative to untreated reference at t = 0 (pH 7.0, time 240 min) [%] |
| --- | --- | --- | --- | --- | --- | --- |
| O=C(/C=C/c1ccc(O)c(O)c1)O[C@@H](C(=O)O)[C@@H](OC(=O)/C=C/c1ccc(O)c(O)c1)C(=O)O [chicoric acid] | 98 | 85 | 83 | 77 | 65 | 50 |
| O=C(O)/C=C/c1ccc(O)c(O)c1 [Caffeic Acid] | 2 | 9 | 10 | 13 | 19 | 26 |
| O=C(/C=C/c1ccc(O)c(O)c1)O[C@@H](C(=O)O)[C@@H](O)C(=O)O [Caftaric Acid] | 0 | 6 | 7 | 10 | 16 | 24 |
